Source: the supplement of paper PMC9931576
Human monoclonal antibodies against the spike receptor-binding domain (heavy:light variable regions). IC50 against pseudoviruses bearing the spike of naturally observed variants; lower = stronger; >10 µg/ml means not reached at the top dose. No active / inactive call. The stated detection limit is 0.0005 µg/ml; values near or below 0.001 µg/ml lie at the floor of the assay.

B1: BD55-6343 (protein)
chain 1: EVQLVQSGAEVKKPGESLKISCKASGYRFSSHWIGWVRQMPGKGLEWMGIIYPDDSDTRYSPSFQGQVIISADKSISTAYLQWSSLKASDSATYYCARPMIRGVYYGMDVWGHGTTVTVSS
chain 2: DIQMTQSPSSLSASAGDRVTITCQASQDISSYLNWYQHKPGKAPKLLIYDASTLETGVPSRFSGSGSGTVFTFTISSLQPEDIATYYCQQWYDLPLTFGGGTKVEIK
B2: BD55-6347 (protein)
chain 1: DVQLAESGGGLAQPGGSLRLSCVVSGVTFSGCDMNWVRQVPGKGLEWVSHSSTGSNTYYADSVRGRFTVSRDNARKSVYLQMDSVRVDDTAVYYCASDCGEPLGLTNPYRGTLFDHWGQGMLVTVSS
chain 2: QSVLTQPPSVSGAPGQRVTISCTGSSSNIGAGYAVHWYQQLPGTAPRLLIFGNNNRPSGVPDRFSGSKSGTSASLAITGLQAEDEGDYYCQSYDSSPSVLYVFGTGTKVSVL
B3: BD55-6348 (protein)
chain 1: QVQLVQSGAEVKKPGASVKVSCKASGYTFTTYDIIWLRQATGQGLEWMGWLNPNSGDTGYAHKFQGRVTMTRDTSISTAYMELSSLISEDTAVYYCAREEDNMVRGLRRFDPWGQGTLVTVSS
chain 2: DIQMTQSPSSLSASVGDRVTITCRASQSISINLNWYQQRPGKGPKLLIYGASSLQSGVPTRFSGSGSGTDFTLTISNLQSEDFATYYCQQSYSTSYTFGQGTKLEIK
B4: BD55-6365 (protein)
chain 1: EVQLVESGGGLVQPGGSLRLSCAASGFSFSRYWMTWVRQAPGKGLEWVANIKQDGTEKYYGDSVKGRFTISRDNAKNSLSLQMNSLRADDTAVYYCAGAPVSYEILAPEWFDPWGQGTLVTVSS
chain 2: SYELTQPPSVSVSPGQTARITCSGDRVPTQYTCWYQQKPGQAPVLIIYKDNKRPSGIPERFSGSTSGTRATLTISGVQAEDEADYYCQTADSVLWVFGGGTKLTVL
B5: BD55-6366 (protein)
chain 1: EVQLVESGGGLVQPGGSLRLSCAASGFTFSNYWMSWVRQAPGKGLEWVANINQDGSEKYYVDSVKGRFTISRDNAKNSLFLQVYSLRVEDTAVYYCAAGESGRYYTEYFQHWGQGTLVTVSS
chain 2: SSELSQPPSVSVSPGQTARITCSGDALATQHAYWYQQKPGQAPVLVIYKDSARPSGIPERFSGSSSGTRGTLTIRGVQAEDEADYYCQSADSSASSYVFGTGTKVTVL
B6: BD55-6369 (protein)
chain 1: EVQLLESGGGLVQPGGSLRLSCAASGFAFSSYAMSWVRQAPGKGLEWVSGIGGSGGLTFYADSVKGRFTISRDNSKNTLYLQMKSLRAEDTAVYYCATEARGWSDCYFDNWGQGTLVTVSS
chain 2: DIQMTQSPSSLSASVGDRVTITCRASQGIRNSLAWYQQKPGKAPKLLLFAASRLESGVPSRFSGSGSGTDYTLTISYVQPEDFATYYCQQYYVTPSITFGQGTRLEIK
B7: BD55-6370 (protein)
chain 1: QVQLVESGGGVVQPGRSLRLSCAASGFTFSSYSMHWVRQAPGKGLDWVAVISNDGSAKFYADSVKGRFTISRDNSKNTLYLQMNSLRAEDTAVYYCVRDAPTMITVVPLFDHWGQGTLVTVSS
chain 2: DIQMTQSPSSLSASVGDRVTISCRASQSISTYLNWYQQKPGKAPKLLIYSASSLQSGVPSRFSGSGSGTDFSLTISSLQPEDFATYYCQQSYSTLALTFGGGTKVEIK
B8: BD55-6373 (protein)
chain 1: QLELQESGPGLVKPSETLSLTCTVSGGSISSSDYYWGWIRQPPGKGLEWIGSIYHGWNSRHNPSLKSRVSMSVDTSKNQFSLTVTSVTAADTAVYYCARHSSVRGVIEDNWFDPWGQGTLVTVSS
chain 2: YVLTQPPSVSVAPGQTARITCGGDIIGTKSVHWYQQKPGQAPVLVVYDDSDRPSGIPERFSGSNSGNTATLTITRVEAGDEADYYCQVWDSSTGWVFGGGTKLTVL
B9: BD55-6377 (protein)
chain 1: EVQLLQSGGGLVQPGGSLRLSCAASGFTFSDYVFVWVRQAPGKGLEWVSAIGGSGGATFYADSVKGRFTISRDNSKNRLYLQMNSLRAEDTAVYYCAKDRSPISLVREEGFDYWGQGSLVTVSS
chain 2: DIQMTQSPSSLSASVGDRVTITCRASQFINTYLNWYQQKPGRAPKLLIYSASSLQSGVPSRFSGSGSGTDFTLTISSLQPEDFATYYCQQSFSTPPYTFGQGTKLEIK
B10: BD55-6383 (protein)
chain 1: QVQLVQSGSELKKPGASVKVSCKASGYTFSTYAIKWVRQAPGQGLEWMGWINTNTGNPTYAQGFTGRFVFSLDTSVSTAFLQISSLKAEDTAIYYCARVFCSGNACYDVDLWGQGTLVTISS
chain 2: QSVLTQPPSASGTPGQRVTISCSGSSSNIGSNFVYWYQHLPGAAPKVLIYRNTHRPSGVPDRFSGSKSGSSASLAISGLRSEDEADYYCAAWDDSLSGRMFGGGTKLTVL
B11: BD55-6385 (protein)
chain 1: EVQLVESGGGLVQPGGSLRLSCAASGFTLSTYWMNWVRQAPGKGLEWVANIKQDGYEKYYLDSVQGRFTISRDNAKNSLYLQMNSLRAEDTAVYYCARALDPVDCSGGSCYSDSFDYWGHGTLVTVSS
chain 2: EILLTQSPATLSLSPGERATLSCRASQSVRNYLAWYQQKPGQAPRLLIYDTSNRATGIPARFSGSGSGTDFTLTISSLEPEDFAVYYCQRRTNWPPRYTFGQGTKLEIK
B12: BD55-1237 (protein)
chain 1: QVQLVESGGGVVQPGRSLRLSCATSDFTSNTYGIHWVRQAPGKGLEWVAVIWSDGSHEYYADSVKGRFTISRDNSKNTVYLQMASLRPEDTALYYCAKSPWLRGSFDVWGQGTVVPVSS
chain 2: NFLLTQPHSVSESPGKTVTISCSGSSGYIASNYVQWYQQRPGSAPIVVMYEDNQRPSGVPDRFSGSIDSSSNSASLTISGLKTEDEADYYCQSYDSDNRAWVFGGGTKLTVL

Key:
Experiment in all cases: pseudovirus neutralization IC50; higher = weaker neutralization
[1] = target: SARS-CoV-2 Omicron BA.1 spike pseudovirus
Method: (§1)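 Single-round VSV luciferase pseudovirus mixed with antibody dilutions for 1 h and put on Huh-7 cells for about a day; IC50 from the dose curve.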

[2] = target: SARS-CoV-2 Omicron BA.2 spike pseudovirus
Method: as §1

[3] = target: SARS-CoV-2 Omicron BA.2.75 spike pseudovirus
Method: as §1

[4] = target: SARS-CoV-2 Omicron BA.5 spike pseudovirus
Method: as §1

[5] = target: SARS-CoV-2 Omicron BQ.1.1 spike pseudovirus
Method: as §1

[6] = target: SARS-CoV-2 Omicron XBB spike pseudovirus
Method: as §1

[7] = target: SARS-CoV-2 early D614G spike pseudovirus
Method: as §1

| Binder | pseudovirus neutralization IC50 [1] | pseudovirus neutralization IC50 [2] | pseudovirus neutralization IC50 [3] | pseudovirus neutralization IC50 [4] | pseudovirus neutralization IC50 [5] | pseudovirus neutralization IC50 [6] | pseudovirus neutralization IC50 [7] |
| --- | --- | --- | --- | --- | --- | --- | --- |
| B1 | > 10 µg/mL | > 10 µg/mL | > 10 µg/mL | > 10 µg/mL | > 10 µg/mL | > 10 µg/mL | > 10 µg/mL |
| B2 | > 10 µg/mL | > 10 µg/mL | > 10 µg/mL | > 10 µg/mL | > 10 µg/mL | > 10 µg/mL | 1.19 µg/mL |
| B3 | > 10 µg/mL | > 10 µg/mL | > 10 µg/mL | > 10 µg/mL | > 10 µg/mL | > 10 µg/mL | > 10 µg/mL |
| B4 | > 10 µg/mL | > 10 µg/mL | > 10 µg/mL | > 10 µg/mL | > 10 µg/mL | > 10 µg/mL | > 10 µg/mL |
| B5 | > 10 µg/mL | > 10 µg/mL | > 10 µg/mL | > 10 µg/mL | > 10 µg/mL | > 10 µg/mL | > 10 µg/mL |
| B6 | > 10 µg/mL | > 10 µg/mL | > 10 µg/mL | > 10 µg/mL | > 10 µg/mL | > 10 µg/mL | > 10 µg/mL |
| B7 | > 10 µg/mL | > 10 µg/mL | > 10 µg/mL | > 10 µg/mL | > 10 µg/mL | > 10 µg/mL | > 10 µg/mL |
| B8 | > 10 µg/mL | > 10 µg/mL | > 10 µg/mL | > 10 µg/mL | > 10 µg/mL | > 10 µg/mL | 0.573 µg/mL |
| B9 | > 10 µg/mL | > 10 µg/mL | > 10 µg/mL | > 10 µg/mL | > 10 µg/mL | > 10 µg/mL | > 10 µg/mL |
| B10 | > 10 µg/mL | > 10 µg/mL | > 10 µg/mL | > 10 µg/mL | > 10 µg/mL | > 10 µg/mL | 0.0247 µg/mL |
| B11 | > 10 µg/mL | 0.718 µg/mL | > 10 µg/mL | > 10 µg/mL | > 10 µg/mL | > 10 µg/mL | 0.0333 µg/mL |
| B12 | > 10 µg/mL | > 10 µg/mL | > 10 µg/mL | > 10 µg/mL | > 10 µg/mL | > 10 µg/mL | 0.221 µg/mL |
